Source: patent US20250257099A1 (priority 2022, published 2025)

Tests used:
[1] = biological target: SARS-CoV-2 S protein (Severe acute respiratory syndrome coronavirus 2, UniProt P0DTC2); assay: cell-based
[2] = tested on: SARS-CoV-2; conditions: 72 h

Compound: CC[C@H](C)[C@H](NC(=O)[C@H](Cc1ccc(O)cc1)NC(=O)[C@H](CO)NC(=O)[C@H](CCC(=O)O)NC(=O)[C@H](CC(N)=O)NC(=O)[C@H](CC(C)C)NC(=O)[C@H](C)NC(=O)[C@H](CCCCN)NC(=O)[C@@H](NC(=O)[C@@H](NC(=O)[C@H](CCC(N)=O)NC(=O)[C@H](CCC(N)=O)NC(=O)[C@H](CC(C)C)NC(=O)[C@H](CO)NC(=O)[C@H](CC(C)C)NC(=O)[C@H](CCSC)NC(=O)[C@H](CCC(=O)O)NC(=O)[C@H](Cc1ccc(O)cc1)NC(=O)[C@@H](NC(=O)[C@H](CC(C)C)NC(=O)[C@H](CC(=O)O)NC(=O)[C@H](CC(C)C)NC(=O)[C@H](CC(C)C)NC(=O)[C@@H](NC(=O)[C@@H](NC(=O)[C@H](CC(N)=O)NC(=O)[C@@H](NC(=O)[C@H](CCC(N)=O)NC(=O)[C@@H](NC(=O)[C@H](CC(C)C)NC(=O)[C@H](CO)NC(C)=O)[C@@H](C)O)[C@@H](C)CC)[C@@H](C)O)[C@@H](C)O)[C@@H](C)O)C(C)C)C(C)C)C(=O)N[C@@H](CC(=O)O)C(=O)N[C@@H](CC(C)C)C(=O)N[C@@H](CCCCN)C(=O)N[C@@H](CCC(=O)O)C(=O)N[C@@H](CC(C)C)C(=O)NCC(=O)N[C@@H](CO)C(=O)NCC(=O)N[C@@H](CO)C(=O)NCC(=O)N[C@@H](CSCC(=O)NCCOCCOCCOCCOCCC(=O)O[C@H]1CC[C@@]2(C)C(=CC[C@H]3[C@@H]4CC[C@H]([C@H](C)CCCC(C)C)[C@@]4(C)CC[C@@H]32)C1)C(N)=O [MERS-CoV C-lipopeptide]
- IC50 [1]: > 650 nM
- IC50 [2]: ~90 nM
